The record followed here is patent US20220356230A1.

First the molecules themselves.
B1: mAb10938 (antibody)
heavy: EVQLVESGGGLVQPGGSLRLSCAVSGFTVSSNYMSWVRQAPGKGLEWVSLIYSGGSTFYADSVKGRFTISRHNSKNTLYLQMNSLRAEDTAVYYCAREGGYSYDYNYWGQGTLVTVSSASTKGPSVFPLAPSSKSTSGGTAALGCLVKDYFPEPVTVSWNSGALTSGVHTFPAVLQSSGLYSLSSVVTVPSSSLGTQTYICNVNHKPSNTKVDKKV[human IgG1 Fc left out here]
light: DIQMTQSPSSLSASVGDRVTITCQASQDIRNYLNWYQQKPGKAPKLLIYDASNLETGVPSRFSGIGSGTDFTFTISSLQPEDIATYYCQQYDNLPITFGQGTRLEIKRTVAAPSVFIFPPSDEQLKSGTASVVCLLNNFYPREAKVQWKVDNALQSGNSQESVTEQDSKDSTYSLSSTLTLSKADYEKHKVYACEVTHQGLSSPVTKSFNRGEC
B2: mAb10921 (antibody)
heavy: EVQLVESGGGLVQPGGSLRLSCAASGITVSSNYMSWVRQAPGKGLEWVSVIYSGGSTFYADSVKGRFTISRHNSKNTLYLQMNSLRAEDTAVYYCARERNFDAFDIWGQGTMVTVSSASTKGPSVFPLAPSSKSTSGGTAALGCLVKDYFPEPVTVSWNSGALTSGVHTFPAVLQSSGLYSLSSVVTVPSSSLGTQTYICNVNHKPSNTKVDKKV[human IgG1 Fc left out here]
light: DIQMTQSPSSVSASVGDRVTITCRASQGISSWLAWYQQKPGKAPKLLIYAASSLQSGVPSRFSGSGSGTDFTLTISSLQPEDFATYYCQQANSFPLFTFGPGTKVDIKRTVAAPSVFIFPPSDEQLKSGTASVVCLLNNFYPREAKVQWKVDNALQSGNSQESVTEQDSKDSTYSLSSTLTLSKADYEKHKVYACEVTHQGLSSPVTKSFNRGEC
B3: mAb10920 (antibody)
heavy: QVQLVESGGGVVQPGRSLRLSCAASGFTFSYYGMHWVRQAPGKGLEWVAVIWYDGSNKFYADSVKGRFTISRDNSKNTLYLQMNSLRAEDTAVYYCAAARPGYYYGMDVWGQGTTVTVSSASTKGPSVFPLAPSSKSTSGGTAALGCLVKDYFPEPVTVSWNSGALTSGVHTFPAVLQSSGLYSLSSVVTVPSSSLGTQTYICNVNHKPSNTKVDKKV[human IgG1 Fc left out here]
light: DIQMTQSPSSLSASVGDRVTITCRASQGISNYLAWFQQKPGKAPNSLIYAASSLQRGVPSKFSGSGSGTDFTLTISSLQPEDFATYYCQQYNSYPRTFGQGTKVEIKRTVAAPSVFIFPPSDEQLKSGTASVVCLLNNFYPREAKVQWKVDNALQSGNSQESVTEQDSKDSTYSLSSTLTLSKADYEKHKVYACEVTHQGLSSPVTKSFNRGEC
B4: mAb11008 (antibody)
heavy: EVQLVESGGGLVQPGGSLRLSCAASGFTVSSNYMTWVRQAPGKGLEWVSVIYSGGSTFYADSVKGRFTISRHNSENTLYLQMNSLRAEDTAVYYCARDLAAAGTDYWGQGALVTVSSASTKGPSVFPLAPSSKSTSGGTAALGCLVKDYFPEPVTVSWNSGALTSGVHTFPAVLQSSGLYSLSSVVTVPSSSLGTQTYICNVNHKPSNTKVDKKV[human IgG1 Fc left out here]
light: DIQLTQSPSFLSASVGDRVTITCWASQGISSYLAWYQQKPGKAPKLLIYAASTLQSGVPSRFSGSGSGTEFTLTISSLQPDDFATYYCQHLNSYLYTFGQGTKLEIKRTVAAPSVFIFPPSDEQLKSGTASVVCLLNNFYPREAKVQWKVDNALQSGNSQESVTEQDSKDSTYSLSSTLTLSKADYEKHKVYACEVTHQGLSSPVTKSFNRGEC
B5: mAb10998 (antibody)
heavy: EVQLVESGGGLVHPGGSLRLSCAASGLTVSSNYMSWVRQAPGKGLEWVSVIYSGGSTYYADSVKGRFTISRHNSKNTLFLQMNSLRAEDTAVYYCARDRPITGTTLDVWGQGTTVTVSSASTKGPSVFPLAPSSKSTSGGTAALGCLVKDYFPEPVTVSWNSGALTSGVHTFPAVLQSSGLYSLSSVVTVPSSSLGTQTYICNVNHKPSNTKVDKKV[human IgG1 Fc left out here]
light: DIQMTQSPSSLFASVGDRVTITCRASQSISSYLNWYQQKPGKAPKLLIYAASSLQSGVPSRFSGSGSGTDFTLTISSLQPEDFAFYYCQQTYSTPPITFGQGTRLEIKRTVAAPSVFIFPPSDEQLKSGTASVVCLLNNFYPREAKVQWKVDNALQSGNSQESVTEQDSKDSTYSLSSTLTLSKADYEKHKVYACEVTHQGLSSPVTKSFNRGEC
B6: mAb11006 (antibody)
heavy: EVQLVESGGGLVQPGGSLRLSCAASGFIVSRNYMSWVRQAPGKGLEWVSVIYSGGSTFYADSVKGRFTISRHNSKNTLYLQMNSLKAEDTAVYYCARELRGYFDYWGQGTLVTVSSASTKGPSVFPLAPSSKSTSGGTAALGCLVKDYFPEPVTVSWNSGALTSGVHTFPAVLQSSGLYSLSSVVTVPSSSLGTQTYICNVNHKPSNTKVDKKV[human IgG1 Fc left out here]
light: B4 light with D81E, H90L, L95P

Positions count from the first letter of the chain named.

The first experiment deals with T1, SARS-CoV-2 RBD-hFc (receptor binding domain of the SARS-CoV-2 Spike protein, amino acids Arg319-Phe5 (SARS-CoV-2)). Description: blocking ELISA, RBD-hFc to hACE2-His, highest antibody concentration, run 1. The conditions noted are these: remark: other sources report otherwise. (In an ELISA, binding on a coated surface is turned into a signal by an enzyme label.)
Molecule B1 displayed a % Blocking of 99%.
In turn, B2 came in with a % Blocking of 99%.
On the same count and under the same terms, the figure for B3 is 95%.

The target of a further experiment is T1, SARS-CoV-2 RBD-hFc (receptor binding …). As to the kind of experiment: blocking ELISA, RBD-hFc to hACE2-His, run 3. The conditions noted are these: remark: other sources report otherwise.
Turning to B2, the half-maximal inhibitory concentration (IC50) turned out to be 0.507 nM. This lies in the sub-nanomolar range.
On the same count and under the same terms, the value for B4 was 1.49 nM; that for B3 was 0.139 nM.

For a further experiment the target is unchanged. Description: blocking ELISA, RBD-hFc to hACE2-His, highest antibody concentration, run 3. The conditions noted are these: remark: other sources report otherwise.
In turn, B5 returned a % Blocking of 55%.
On the same count and under the same terms, the value for B2 was 94%; that for B6 was 85%; that for B4 was 93%.
For the molecule B3, the % Blocking was 87%.

Another experiment has the same target. Description: blocking ELISA, RBD-hFc to hACE2-His, run 1. The note with it: remark: other sources report otherwise.
B1 yielded an IC50 of 0.275 nM. This counts as sub-nanomolar.
On the same count and under the same terms, the value for B2 was 0.433 nM; that for B3 was 0.338 nM.

For a further experiment, the target named is SARS-CoV-2 RBD-hFc (receptor binding domain of the SARS-CoV-2 spike protein, amino acids Arg319 to P (SARS-CoV-2)).
Test: not given
The conditions noted are these: remark: other sources report otherwise.
Turning to B5, the SARS-CoV-2 RBD-hFc Binding to His presented ACE2 (Abs 450 nm) was 0.185 Abs 450 nm.
On the same count and under the same terms, the figure for B6 is 0.236 Abs 450 nm.
The same measure, in the same setting: the value for B4 was 0.213 Abs 450 nm.

By IC50 is commonly meant the concentration at which inhibition is half-maximal. Higher therefore signals a need for much substance.
